Target: α7 nAChR (Homo sapiens, UniProt P36544)
Assay: α7
Conditions: read-out: α7

By UniProt entry, the sequences of proteins in these tests, tags left out. Where a name states a change or a piece, a line headed by the entry shows the natural chain unless it says otherwise.
UniProt P36544: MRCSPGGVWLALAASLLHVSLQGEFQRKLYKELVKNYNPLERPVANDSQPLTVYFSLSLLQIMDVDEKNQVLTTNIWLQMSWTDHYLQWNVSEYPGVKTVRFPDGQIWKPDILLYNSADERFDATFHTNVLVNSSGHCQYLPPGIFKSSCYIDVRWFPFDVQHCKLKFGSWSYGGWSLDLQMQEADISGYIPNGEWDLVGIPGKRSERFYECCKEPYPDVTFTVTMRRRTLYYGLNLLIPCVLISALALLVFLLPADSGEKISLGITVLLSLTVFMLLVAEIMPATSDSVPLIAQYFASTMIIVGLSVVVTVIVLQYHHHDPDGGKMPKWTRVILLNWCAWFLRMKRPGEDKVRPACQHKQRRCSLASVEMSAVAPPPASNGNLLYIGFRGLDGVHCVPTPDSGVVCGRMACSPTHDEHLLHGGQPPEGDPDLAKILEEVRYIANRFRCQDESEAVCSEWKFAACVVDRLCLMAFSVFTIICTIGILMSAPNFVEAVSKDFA

“G C^I C^II T D P R C^III (Cit) (iY) Q C^IV Y” gave an IC50 greater than 10 µM.

— patent publication US20230391838A1 (priority 2020, published 2023)
